Test results published in paper PMC8026907.
The exact form of at least one protein or probe is not confirmed. At least one verdict was read from the data and is not stated in words by the source. Tags and fusion partners may be left off the protein sequences shown.

Target: T1, CRP-MTB (cAMP receptor protein, wild type) (Mycobacterium tuberculosis) (UniProt P9WMH3)
T1 sequence (looked up, limits assumed): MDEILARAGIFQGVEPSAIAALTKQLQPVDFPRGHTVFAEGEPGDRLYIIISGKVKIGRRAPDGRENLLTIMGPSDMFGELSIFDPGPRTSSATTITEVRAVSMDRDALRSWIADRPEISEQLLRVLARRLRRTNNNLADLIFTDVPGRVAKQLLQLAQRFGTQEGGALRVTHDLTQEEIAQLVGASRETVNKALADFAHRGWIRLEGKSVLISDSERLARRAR
Experiment: EMSA
Conditions: recombinant protein

**Q.** Does “GCGCGTAGTGTGAACAAGCTCACATGCAAGCC (double strand) [SerC promoter 32-bp (EMSA)]” bind?
**A.** binds
